# Share of PSTVd loop 15 variants by leaf site

Source: Wu et al. 2024 (doi:10.1371/journal.ppat.1012142), supplementary data.

Region: loop 15 of PSTVd (intermediate strain), upper and lower strand joined, each 5' to 3', the first 7 letters being the upper strand, closing pairs included. Wild type: GGAAACCGCUACUAC. Varied positions (N): GGAAACCGNNNNNNC.

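Three N. benthamiana plants were inoculated with the whole mutant pool. Samples came from the inoculated region at 5 days, the leaf margin at 10 and upper systemic leaves at 12.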

Values are reads per thousand in the sample; higher means more abundant, 0 means not found. Each site shows the three plants. "Pool" is the share in the plasmid pool used as inoculum, on the same scale. The inoculated region was read from the minus strand, the other sites from the plus strand. The authors trace changes outside the varied positions to PCR and sequencing errors or to mutation in the plant; presence does not show that a variant is infectious alone.

{"sequence": "GGAAACCGAAUUGCC", "pool": "0.288", "inoculated region": "0.0655 / 0.145 / 0.0952", "leaf margin": "0 / 0 / 0", "systemic leaves": "0.0161 / 0 / 0"}
{"sequence": "GGAAACCGAAUUGGC", "pool": "0.224", "inoculated region": "0.131 / 0.161 / 0.0952", "leaf margin": "0 / 0 / 0", "systemic leaves": "0 / 0 / 0"}
{"sequence": "GGAAACCGAAUUGUC", "pool": "0.272", "inoculated region": "0.213 / 0.145 / 0.133", "leaf margin": "0.0323 / 0 / 0", "systemic leaves": "0.0161 / 0 / 0"}
{"sequence": "GGAAACCGAAUUUAC", "pool": "0.304", "inoculated region": "0.115 / 0.145 / 0.0952", "leaf margin": "0.0323 / 0 / 0", "systemic leaves": "0.0322 / 0 / 0"}
{"sequence": "GGAAACCGAAUUUCC", "pool": "0.224", "inoculated region": "0.0819 / 0.129 / 0.133", "leaf margin": "0 / 0 / 0.0200", "systemic leaves": "0 / 0 / 0"}
{"sequence": "GGAAACCGAAUUUGC", "pool": "0.272", "inoculated region": "0.115 / 0.0643 / 0.0762", "leaf margin": "0 / 0 / 0.0401", "systemic leaves": "0 / 0 / 0"}
{"sequence": "GGAAACCGAAUUUUC", "pool": "0.272", "inoculated region": "0.147 / 0.0803 / 0.114", "leaf margin": "0 / 0 / 0", "systemic leaves": "0.0161 / 0 / 0"}
{"sequence": "GGAAACCGACAAAAC", "pool": "0.272", "inoculated region": "0.328 / 0.305 / 0.400", "leaf margin": "0.0647 / 0.0223 / 0.120", "systemic leaves": "0.0322 / 0 / 0"}
{"sequence": "GGAAACCGACAAACC", "pool": "0.240", "inoculated region": "0.0655 / 0.112 / 0.0190", "leaf margin": "0.0162 / 0 / 0", "systemic leaves": "0 / 0 / 0"}
{"sequence": "GGAAACCGACAAAGC", "pool": "0.192", "inoculated region": "0.147 / 0.0321 / 0.0381", "leaf margin": "0.0323 / 0 / 0.0401", "systemic leaves": "0 / 0 / 0"}
{"sequence": "GGAAACCGACAAAUC", "pool": "0.224", "inoculated region": "0.295 / 0.337 / 0.305", "leaf margin": "0.0970 / 0.0445 / 0.120", "systemic leaves": "0.0644 / 0 / 0"}
{"sequence": "GGAAACCGACAACAC", "pool": "0.208", "inoculated region": "0.246 / 0.402 / 0.400", "leaf margin": "0.162 / 0.178 / 0.140", "systemic leaves": "0.0161 / 0.0756 / 0.0912"}
{"sequence": "GGAAACCGACAACCC", "pool": "0.256", "inoculated region": "0.0328 / 0.0964 / 0.133", "leaf margin": "0.0162 / 0 / 0", "systemic leaves": "0 / 0 / 0"}
{"sequence": "GGAAACCGACAACGC", "pool": "0.256", "inoculated region": "0.0655 / 0.161 / 0.152", "leaf margin": "0.0162 / 0.0223 / 0.0200", "systemic leaves": "0 / 0 / 0"}
{"sequence": "GGAAACCGACAACUC", "pool": "0.224", "inoculated region": "0.344 / 0.177 / 0.324", "leaf margin": "0.162 / 0.0891 / 0.120", "systemic leaves": "0.0483 / 0 / 0"}
{"sequence": "GGAAACCGACAAGAC", "pool": "0.240", "inoculated region": "0.0655 / 0.177 / 0.0571", "leaf margin": "0 / 0.0223 / 0.0200", "systemic leaves": "0 / 0 / 0"}
{"sequence": "GGAAACCGACAAGCC", "pool": "0.224", "inoculated region": "0.0983 / 0.145 / 0.0190", "leaf margin": "0.0162 / 0.0445 / 0", "systemic leaves": "0 / 0 / 0"}
{"sequence": "GGAAACCGACAAGGC", "pool": "0.272", "inoculated region": "0.115 / 0.0643 / 0.0381", "leaf margin": "0 / 0.0445 / 0", "systemic leaves": "0 / 0 / 0"}
{"sequence": "GGAAACCGACAAGUC", "pool": "0.192", "inoculated region": "0.0491 / 0.0803 / 0.133", "leaf margin": "0 / 0 / 0", "systemic leaves": "0 / 0 / 0"}
{"sequence": "GGAAACCGACAAUAC", "pool": "0.224", "inoculated region": "0.311 / 0.225 / 0.419", "leaf margin": "0.113 / 0.0668 / 0.0801", "systemic leaves": "0.0644 / 0.0303 / 0.137"}
{"sequence": "GGAAACCGACAAUCC", "pool": "0.208", "inoculated region": "0.131 / 0.161 / 0.0952", "leaf margin": "0.0162 / 0.0223 / 0.0200", "systemic leaves": "0 / 0 / 0"}
{"sequence": "GGAAACCGACAAUGC", "pool": "0.208", "inoculated region": "0.311 / 0.386 / 0.343", "leaf margin": "0.129 / 0.178 / 0.0601", "systemic leaves": "0.0805 / 0 / 0"}
{"sequence": "GGAAACCGACAAUUC", "pool": "0.272", "inoculated region": "0.295 / 0.145 / 0.248", "leaf margin": "0.0808 / 0.0891 / 0.0401", "systemic leaves": "0 / 0.0454 / 0.0912"}
{"sequence": "GGAAACCGACACAAC", "pool": "0.160", "inoculated region": "0.409 / 0.257 / 0.400", "leaf margin": "0.113 / 0.178 / 0.0601", "systemic leaves": "0.0322 / 0 / 0"}
{"sequence": "GGAAACCGACACACC", "pool": "0.192", "inoculated region": "0.0819 / 0.177 / 0.0952", "leaf margin": "0.0162 / 0.0223 / 0.0200", "systemic leaves": "0 / 0 / 0"}
{"sequence": "GGAAACCGACACAGC", "pool": "0.240", "inoculated region": "0.0655 / 0.112 / 0.0952", "leaf margin": "0 / 0.0445 / 0", "systemic leaves": "0 / 0 / 0"}
{"sequence": "GGAAACCGACACAUC", "pool": "0.240", "inoculated region": "0.131 / 0.112 / 0.0190", "leaf margin": "0.0162 / 0 / 0.0200", "systemic leaves": "0.0322 / 0 / 0"}
{"sequence": "GGAAACCGACACCAC", "pool": "0.128", "inoculated region": "0.262 / 0.386 / 0.381", "leaf margin": "0.146 / 0.0445 / 0.120", "systemic leaves": "0 / 0 / 0"}
{"sequence": "GGAAACCGACACCCC", "pool": "0.208", "inoculated region": "0.0328 / 0.0803 / 0.190", "leaf margin": "0 / 0 / 0.0200", "systemic leaves": "0 / 0 / 0"}
{"sequence": "GGAAACCGACACCGC", "pool": "0.144", "inoculated region": "0.131 / 0.112 / 0.0381", "leaf margin": "0 / 0 / 0", "systemic leaves": "0 / 0 / 0"}
{"sequence": "GGAAACCGACACCUC", "pool": "0.240", "inoculated region": "0.262 / 0.466 / 0.190", "leaf margin": "0.0162 / 0 / 0", "systemic leaves": "0.0322 / 0 / 0"}
{"sequence": "GGAAACCGACACGAC", "pool": "0.368", "inoculated region": "0.115 / 0.129 / 0.0381", "leaf margin": "0 / 0 / 0.0200", "systemic leaves": "0 / 0 / 0"}

The first 4 entries again:

sequence,pool,inoculated region,leaf margin,systemic leaves
GGAAACCGAAUUGCC,0.288,0.0655 / 0.145 / 0.0952,0 / 0 / 0,0.0161 / 0 / 0
GGAAACCGAAUUGGC,0.224,0.131 / 0.161 / 0.0952,0 / 0 / 0,0 / 0 / 0
GGAAACCGAAUUGUC,0.272,0.213 / 0.145 / 0.133,0.0323 / 0 / 0,0.0161 / 0 / 0
GGAAACCGAAUUUAC,0.304,0.115 / 0.145 / 0.0952,0.0323 / 0 / 0,0.0322 / 0 / 0

Samples held 43,870 to 66,106 reads, so the smallest values rest on one or two reads. Wild type was 33.9 per thousand in the pool and the most common sequence in every sample (inoculated region 202, 200, 159; leaf margin 724, 746, 710; systemic leaves 856, 883, 880).